A mixed list of measured activities; the numbers were collected in NIAID ChemDB.

Shared fields: whole-cell or culture tests; species: Punta Toro virus; cells: VERO; measure: EC50

Lines come from different laboratories, so protocols vary. Blank or dashed fields: not listed here. ECn: concentration that inhibits the pathogen or its effect by n%.

SMILES | strain | read by | value
CNc1ncnc2c1cnn2Cc1cn(CCCCO)nn1 |  |  | >400 µg/mL
OC[C@H]1O[C@@H](n2ncc(=S)[nH]c2=S)C(O)C1O | Adames | cytopathic effect | 52 µg/mL
O=c1[nH]cnc2c1cnn2Cc1cn(CCCCO)nn1 |  |  | >400 µg/mL
CC1(CO)CCC(Cc2nc3ncnc(N)c3[nH]2)C1(C)C |  | cytopathic effect | >10 µg/mL
CC(Sc1ncnc2c1cnn2COCC(O)CO)C(N)=O |  | cytopathic effect | >400 µg/mL
CC1(CO)CCC(Cn2cnc3c(=O)[nH]c(N)nc32)C1(C)C |  | cytopathic effect | >400 µg/mL
Nc1ccn([C@@H]2OC[C@H](CO)[C@H]2O)c(=O)n1 |  | cytopathic effect | >80 µg/mL
O=C1CSc2nnc(-c3cn(-c4ccccc4)nc3-c3ccccc3)n2N1 |  | cytopathic effect | >16 µg/mL
NC(=O)CSc1ncnc2c1cnn2CCCCO |  | cytopathic effect | >400 µg/mL
CCON=C[C@H]1O[C@@H](n2cnc3c(N)ncnc32)[C@H](O)[C@@H]1O |  | cytopathic effect | >100 µg/mL
CSc1ncnc2c1cnn2Cc1cn(CCCCO)nn1 |  |  | >400 µg/mL
COC(=O)[C@]1(C)CCC[C@]2(C)c3ccc4[nH]cnc4c3CCC12 |  | plaque count | >4 µg/mL
CC1(C)[C@@H](CCO)C[C@H]1n1cnc2c(=O)[nH]cnc21 |  | cytopathic effect | >400 µg/mL
Nc1nc2c(ncn2[C@H]2OC[C@@H](CO)C2O)c(=O)[nH]1 |  | cytopathic effect | >16 µg/mL
[N-]=[N+]=NC(CBr)c1cc([C@H]2C[C@H](O)[C@@H](CO)O2)c(F)cc1F |  | cytopathic effect | >16 µg/mL
CCCCCCCCN=C(N)c1ncn([C@@H]2O[C@H](CO)[C@@H](O)[C@H]2O)n1 | Adames | cytopathic effect | >1000 µg/mL
COC(=O)Nc1nc2c3c(ccc2[nH]1)[C@@]1(C)CCC[C@@](C)(C(=O)OC)C1CC3 |  | plaque count | >4 µg/mL
CON=C[C@H]1O[C@@H](n2cnc3c(N)ncnc32)[C@H](O)[C@@H]1O |  | cytopathic effect | >100 µg/mL
Nc1ncnc2c1ncn2[C@H]1OC[C@@H](CO)C1O |  | cytopathic effect | >80 µg/mL
CC1(C)[C@@H](CO)CC[C@@]1(C)Cn1cnc2c(Cl)ncnc21 |  | cytopathic effect | >400 µg/mL
O=C(Nn1c(-c2cn(-c3ccccc3)nc2-c2ccccc2)n[nH]c1=S)c1ccccc1 |  | cytopathic effect | >16 µg/mL
CC1(C)[C@@H](CO)CC[C@@]1(C)Cn1ccc(=O)[nH]c1=O |  | cytopathic effect | >400 µg/mL
CC1(CO)CCC(Cn2cnc3c(Cl)nc(N)nc32)C1(C)C |  | cytopathic effect | >200 µg/mL
O=c1[nH]n2c(-c3cn(-c4ccccc4)nc3-c3ccccc3)nnc2s1 |  | cytopathic effect | >80 µg/mL
CC(=O)OC[C@H]1O[C@@H](n2ncc(=S)[nH]c2=S)C(OC(C)=O)C1OC(C)=O | Adames | cytopathic effect | 69.1 µg/mL
CC(Sc1ncnc2c1cnn2CCCCO)C(N)=O |  | cytopathic effect | >400 µg/mL
CC1(C)[C@@H](CO)CC[C@@]1(C)Cn1nnc2c(N)ncnc21 |  | cytopathic effect | >400 µg/mL
COC(=O)[C@]1(C)CCC[C@]2(C)c3ccc4[nH]c(C)nc4c3CCC12 |  | plaque count | >4 µg/mL
OC[C@H]1CC(n2cnc3c(NC4CC4)ncnc32)C[C@@H]1CO |  |  | >100 µg/mL
OC[C@H]1O[C@H](c2cc(Cl)c(F)cc2F)C[C@@H]1O |  | cytopathic effect | >80 µg/mL
CCOC(=O)C1Sc2nnc(-c3cn(-c4ccccc4)nc3-c3ccccc3)n2NC1=O |  | cytopathic effect | >16 µg/mL
CC1(C)[C@@H](CCO)C[C@H]1n1nnc2c(=O)[nH]cnc21 |  | cytopathic effect | >100 µg/mL
CC1(CO)CCC(Cn2cnc3c(N)nc(N)nc32)C1(C)C |  | cytopathic effect | >40 µg/mL
O=c1cc(O)n([C@@H]2O[C@H](CO)C(O)C2O)c(=O)[nH]1 | Adames | cytopathic effect | 664 µg/mL
NC1=Nn2c(nnc2-c2cn(-c3ccccc3)nc2-c2ccccc2)SC1 |  | cytopathic effect | >16 µg/mL
CC1(C)[C@@H](CCO)C[C@H]1n1nnc2c(=O)[nH]c(N)nc21 |  | cytopathic effect | >400 µg/mL
O=c1ccn([C@@H]2C[C@H](CO)C[C@H]2CO)c(=O)[nH]1 |  |  | >100 µg/mL
CC1(CO)CCC(Cn2nnc3c(=O)[nH]cnc32)C1(C)C |  | cytopathic effect | >400 µg/mL
Nn1c(SCC(=O)O)nnc1-c1cn(-c2ccccc2)nc1-c1ccccc1 |  | cytopathic effect | >80 µg/mL
O=c1[nH]c(=O)n([C@@H]2C[C@H](CO)C[C@H]2CO)cc1I |  |  | >100 µg/mL
CC1(CO)CCC(Cn2nnc3c(Cl)ncnc32)C1(C)C |  | cytopathic effect | >40 µg/mL
CN=C(N)c1ncn([C@@H]2O[C@H](CO)[C@@H](O)[C@H]2O)n1 | Adames | cytopathic effect | 250 µg/mL

5 of the rows above, restated:

{"SMILES": "OC[C@H]1O[C@@H](n2ncc(=S)[nH]c2=S)C(O)C1O", "strain": "Adames", "read by": "cytopathic effect", "value": "52 µg/mL"}
{"SMILES": "CC1(CO)CCC(Cn2nnc3c(=O)[nH]cnc32)C1(C)C", "read by": "cytopathic effect", "value": ">400 µg/mL"}
{"SMILES": "OC[C@H]1CC(n2cnc3c(NC4CC4)ncnc32)C[C@@H]1CO", "value": ">100 µg/mL"}
{"SMILES": "CC1(C)[C@@H](CCO)C[C@H]1n1cnc2c(=O)[nH]cnc21", "read by": "cytopathic effect", "value": ">400 µg/mL"}
{"SMILES": "CC1(C)[C@@H](CO)CC[C@@]1(C)Cn1nnc2c(N)ncnc21", "read by": "cytopathic effect", "value": ">400 µg/mL"}